PubChem BioAssay AID624099, ICCB-Longwood – 2012

- Test: 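Human genes that papillomavirus E2 requires to repress the HPV18 LCR promoter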 (primary screen)
- Cells: human C33A cervical carcinoma cells (HPV-negative) stably expressing BPV1 E2 and an HPV18 LCR luciferase reporter
- Reagents: siRNA pool against human genes, 40 nM
- Timing: 72 h
- Detection: 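HPV18 LCR reporter light per well, converted to plate-wise z-scores that exclude control wells, and averaged over triplicate plates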
- Direction: mean z-score and z-score: higher = stronger reporter signal, weaker E2 silencing
- Active means: 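Hit if mean z-score reaches 2 and two or more of three replicate z-scores also reach 2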
Shown is a random part of about 21,000 reagents. In the full data, 497 (2.4%) got an active call. 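Higher z means weaker E2 silencing; only reporter increases were scored, and knock-downs that hurt cell survival may mask genuine repressor factors.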 Entries without a mark were called inactive.

Gene	mean z-score	z-score, replicate A	z-score, replicate B	z-score, replicate C
LOC388549 (retired record)	0.18	0.1	0.42	0.03
METTL4 (methyltransferase 4, N6-adenosine)	-0.26	-0.36	-0.12	-0.29
C1QTNF4 (C1q and TNF related 4)	0.67	0.8	0.87	0.32
ASB17 (ankyrin repeat and SOCS box containing 17)	-0.02	-0.05	-0.1	0.08
TLN2-AS2 (TLN2 antisense RNA 2)	0.44	0.63	0.05	0.64
SLC20A1	-0.16	-0.15	-0.3	-0.03
LINC02370 (long independently transcribed non-coding RNA 2370)	0.89	0.12	1.12	1.44
KRT36 (keratin 36)	-0.33	-0.58	-0.16	-0.27
PKN2 (protein kinase N2)	-2.95	-3.02	-2.82	-3.02
NAP1L1 (nucleosome assembly protein 1 like 1)	0.13	0.25	0.14	0
TWIST1 (twist family bHLH transcription factor 1)	0.74	0.76	0.68	0.76
HS6ST1P1 (heparan sulfate 6-O-sulfotransferase 1 pseudogene 1)	-0.13	-0.32	-0.01	-0.07
SH2B2 (SH2B adaptor protein 2)	-0.4	-0.28	-0.52	-0.41
AHNAK2 (AHNAK nucleoprotein 2)	2.19 (active)	2.48	2.02	2.06
STAU1 (staufen double-stranded RNA binding protein 1)	0.04	0.14	-0.08	0.08
RNF135 (ring finger protein 135)	0.85	0.9	0.53	1.12
CRYBB2 (crystallin beta B2)	-1.15	-1.09	-1.12	-1.24
CARF (calcium responsive transcription factor)	0.37	0.67	0.27	0.17
CYP2A7 (cytochrome P450 family 2 subfamily A member 7)	0.81	0.61	0.8	1.01
UTP14C (UTP14C small subunit processome component)	0.52	0.72	0.26	0.58
LOC400969 (retired record)	0.4	0.31	0.58	0.3
LINC01999 (long independently transcribed non-coding RNA 1999)	0.73	0.97	0.42	0.79
ADAM3A (ADAM metallopeptidase domain 3A (pseudogene))	1.67	1.63	1.48	1.89
STAMBP (STAM binding protein)	-1.26	-1.34	-1.24	-1.2
OR52E6 (olfactory receptor family 52 subfamily E member 6)	0.22	0.21	0.29	0.17
LMO1 (LIM domain only 1)	1.86	1.98	1.42	2.17
HAUS2 (HAUS augmin like complex subunit 2)	-2.3	-2.49	-2.13	-2.28
HS6ST1 (heparan sulfate 6-O-sulfotransferase 1)	-0.2	-0.12	-0.13	-0.35
RNF114 (ring finger protein 114)	-1.28	-1.17	-1.29	-1.37
RAX (retina and anterior neural fold homeobox)	-0.83	-0.7	-0.63	-1.15
USP17L2 (ubiquitin specific peptidase 17 like family member 2)	0.83		0.89	0.76
EFR3A (EFR3 homolog A)	-0.97	-0.76	-1.23	-0.91
ZNF445 (zinc finger protein 445)	0.74		0.56	0.93
SRSF5 (serine and arginine rich splicing factor 5)	-0.32	-0.3	-0.39	-0.27
SFRP2 (secreted frizzled related protein 2)	-2.42	-2.33	-2.67	-2.26
CCDC80 (coiled-coil domain containing 80)	-1.78	-1.27	-2.09	-1.98
CLP1 (cleavage factor polyribonucleotide kinase subunit 1)	0.14	0.49	0.11	-0.19
EPN3 (epsin 3)	-0.36	-0.32	-0.46	-0.29
TRIQK (triple QxxK/R motif containing)	-1.04	-1.07	-1.14	-0.92
CCND1 (cyclin D1)	0.85	0.81	0.7	1.05
PTPRH (protein tyrosine phosphatase receptor type H)	0.07	-0.04	0.09	0.17
TUBGCP2 (tubulin gamma complex component 2)	-1.39	-0.88	-1.54	-1.75
PEBP1 (phosphatidylethanolamine binding protein 1)	-0.05	-0.14	0.08	-0.08
PGLYRP3 (peptidoglycan recognition protein 3)	2.2 (active)	2.23	2.09	2.27
PCK2 (phosphoenolpyruvate carboxykinase 2, mitochondrial)	1.16	0.95	1.43	1.1
MMP11 (matrix metallopeptidase 11)	-1.52	-1.29	-1.56	-1.69
MFSD12 (major facilitator superfamily domain containing 12)	-0.62	-0.46	-0.7	-0.71
ABCC4 (ATP binding cassette subfamily C member 4 (PEL blood group))	0.37	0.35	0.45	0.32
FRG1 (FSHD region gene 1)	-1.34	-1.43	-1.31	-1.29
R3HCC1 (R3H domain and coiled-coil containing 1)	1.06	0.75	1.1	1.34
ARHGAP26 (Rho GTPase activating protein 26)	-0.3	-0.27	-0.32	-0.31
ERVMER34-1 (endogenous retrovirus group MER34 member 1, envelope)	-0.04	0.13	-0.42	0.16
PLAA (phospholipase A2 activating protein)	-0.47	-0.64	-0.58	-0.19
LOC284931 (retired record)	0.21	0.18	0.25	0.21
LINC02175 (long independently transcribed non-coding RNA 2175)	0.03	-0.02	0.16	-0.04
HCG9 (HLA complex group 9)	0.65	0.82	0.45	0.68
NISCH (nischarin)	0.12	0.14	-0.07	0.27
KLK2 (kallikrein related peptidase 2)	0.23	0.16	0.28	0.25
GRID1 (glutamate ionotropic receptor delta type subunit 1)	-0.82	-0.83	-0.85	-0.77
MED30 (mediator complex subunit 30)	-1.29	-1.47	-1.59	-0.82
INMT (indolethylamine N-methyltransferase)	-1.52	-1.68	-1.53	-1.33
RANBP6 (RAN binding protein 6)	-0.4	-0.61	-0.06	-0.52
OR2T5 (olfactory receptor family 2 subfamily T member 5)	-1.64	-1.51	-1.62	-1.8
HERPUD1	-0.27	-0.26	-0.42	-0.14
NOL11P1 (NOL11 pseudogene 1)	-0.52	-0.76	-0.23	-0.57
UGT8 (UDP glycosyltransferase 8)	0.42	0.28	0.42	0.55
BCL3 (BCL3 transcription coactivator)	-0.62	-0.76	-0.54	-0.57
ZMYM5 (zinc finger MYM-type containing 5)	0.45	0.43	0.54	0.39
LARGE2 (LARGE xylosyl- and glucuronyltransferase 2)	-0.34	-0.44	-0.16	-0.43
PJA2 (praja ring finger ubiquitin ligase 2)	1.21	1.23	1.07	1.33
RPSAP10 (ribosomal protein SA pseudogene 10)	-0.62	-0.89	-0.21	-0.77
GUSBP3 (GUSB pseudogene 3)	-0.73	-0.71	-0.63	-0.84
NRG4 (neuregulin 4)	0.7	0.31	0.69	1.12

Active calls, of those listed so far:
Gene	mean z-score	z-score, replicate A	z-score, replicate B	z-score, replicate C
AHNAK2 (AHNAK nucleoprotein 2)	2.19 (active)	2.48	2.02	2.06
PGLYRP3 (peptidoglycan recognition protein 3)	2.2 (active)	2.23	2.09	2.27
